This note sets out measurements from article PMC6854852.

Series [1] has as its system MW2-rBraR-phos (wild type, phosphorylated) (Staphylococcus aureus MW2). Nature of the series: EMSA. Particulars: acetyl phosphate-phosphorylated, Mg2+; EMSA: 5 ng DIG-labeled DNA, rBraR (given as 50 mM) in DIG Gel Shift Kit 2nd Generation (Roche) buffer, 6% native PAGE; binding temperature and pH not stated; recombinant protein; residues 1-221; protein details: 6xHis (pQE30); label: 3' DIG; probe letters rebuilt from the primers and the genome.

The test system of series [2] is SAN8-rBraR-phos (phosphorylated) D96V. Nature of the series: EMSA. Particulars: acetyl phosphate-phosphorylated, Mg2+, stronger than MW2-BraR; EMSA: 5 ng DIG-labeled DNA, rBraR (given as 50 mM) in DIG Gel Shift Kit 2nd Generation (Roche) buffer, 6% native PAGE; binding temperature and pH not stated; recombinant protein; residues 1-221; protein details: 6xHis (pQE30); label: 3' DIG; probe letters rebuilt from the primers and the genome.

For at least one entry, the source does not settle the construct or the ends of the probe.

For “ATCACTTAGAAAGCACCATTGCTTTTGTCTAATATGTACGATGAATCTGTATCCTCACTCAAAAATCTACTACGTAGCGATAGCTTTCAACTCTGTAAGGTTCAAACATTGAATTGTAAGTTTAGATAAAGGCTACTACTCCAAACATTATTTAAAATGAAATTAAATACAAAAGGAGTGAGACTATGACAATATTATCAGTGCAACATGTTTCAAAAACATACGG (double strand) [vraDE-F1]”, the binding result in series [1] and in series [2] was “binds” each time.
